For data set [1], the system named is RNA polymerase holoenzyme. The experiment in a line: pull-down. Particulars: with 100 nM ToxR-N; commercial protein; label: biotin 5' on reverse primer; probe letters rebuilt from the primers and the genome.
The target in a further data set is ToxR (full length) (UniProt Q9RP86). The experiment in a line: EMSA. To be noted: ToxR 0-800 nM, competed by unlabeled same DNA; recombinant protein; residues 1-290; protein details: C-terminal Strep-tag; label: 32P 5' end; probe letters rebuilt from the primers and the genome.

The exact form of at least one protein or probe is not confirmed.

With “CTGCAGAAGTCGACTTTCCCAGTTACGTGTCAATTTCATAGCGCTAATATTGACGAGATTGTTGGGTTTTGTGGTCAAACAATAGTTGCAGCAAATGCTTTAAGGGGGTTAAGTGATGAGACATCACTTAGCTCAATAATTGCTACTTATGAGGGTATTTCTGTTTTTTATAGTTTTTTAGGTTTTACTTAAATATATGTTTTTAATCAACAAAAATGATAATTGGCTAAAATATTGTGATTAATTATCAATCTAGTTGCTAAACATCAATGAATTCAATGATAGTGAGCTGCGCCCTGAGAGTGATGAGGGCGATAAATATAAGAAATACAGGTTATCTATTCCTGACTATCAAATTCAAATTTGTTGACCGTTACACGAGAGGCGCACTAGATGTTAGATAAAAAAGATGCGATGAGCGCGATTGCCAGCTATCGAATGGAAAGTAC (double strand) [leuO upstream wild type (pull-down)]”, the binding result in data set [1] is given as “binds”.

As for “TCTAGATAAAGTACTTTCCATTCGATAGCTGGCAATCGCGCTCATCGCATCTTTTTTATCTAACATCTAGTGCGCCTCTCGTGTAACGGTCAACAAATTTGAATTTGATAGTCAGGAATAGATAACCTGTATTTCTTATATTTATCGCCCTCATCACTCTCAGGGCGCAGCTCACTATCATTGAATTCATTGATGTTTAGCAACTAGATTGATAATTAATCACAATATTTTAGCCAATTATCATTTTTGTTGATTAAAAACATATATTTAAGTAAAACCTAAAAAACTATAAAAAACAGAAATACCCTCATAAGTAGCAATTATTGAGCTAAGTGATGTCTCATCACTTAACCCCCTTAAAGCATTTGCCGCAACTATTGTTTGACCACCAAACCCAACAATCTCGTCAATATTAGCGGGTACC (double strand) [leuO upstream 412 bp]”, the binding result in the data set with ToxR (full length) is “binds”.

(Values after PMC6934829, “Multi-Factor Regulation of the Master Modulator LeuO for the Cyclic-(Phe-Pro) Signaling Pathway in Vibrio vulnificus” (Scientific Reports, 2019).)
